Patent US7803769B2 (priority 2006, dated 2010)

Test: peptide synthesis
Settings: conjugation step, analytical RP-HPLC, several disulfide bridges, sequence written open

In the case of N-Terminally PEGylated-Des-Arg1-ShK, the “crude HPLC purity” value is reported as “approximately 58%” and the “final HPLC purity” value is reported as 85%.
